Anti-infective test results gathered from many reports (values: NIAID ChemDB through PubChem).

All rows: enzyme or target tests; organism: HIV; protein: Reverse transcriptase; read-out: fold resistance

Conditions beyond the fields shown may differ between rows. An empty or dashed field is not shown. Fold resistance: result on the changed form divided by that on wild type.

smiles,mutations,method,value
CCNc1cccnc1N1CCN(C(=O)c2cc3cc4c(cc3[nH]2)OCO4)CC1,RT-Y181C P236L,,45.5
Cc1cn([C@@H]2O[C@H](CO[Si](C)(C)C(C)(C)C)C3(OS(=O)(=O)C=C3N)[C@H]2O[Si](C)(C)C(C)(C)C)c(=O)n(C)c1=O,RT-E138K,nucleotide incorporation,>183
CCc1c(Sc2ccccc2)n(COCc2ccccc2)c(=O)[nH]c1=O,RT-V90A,RT activity,0.5
Nc1nc2c(ncn2[C@H]2CC[C@@H](COP(=O)(O)OP(=O)(O)OP(=O)(O)O)O2)c(=O)[nH]1,RT-E138K(P66 ONLY),,0.373
Cc1cn([C@@H]2O[C@H](CO[Si](C)(C)C(C)(C)C)[C@@]3(OS(=O)(=O)C=C3N)[C@H]2O[Si](C)(C)C(C)(C)C)c(=O)[nH]c1=O,RT-E138K,nucleotide incorporation,>150
CC(=O)c1ccc(C)cc1NC(C(N)=O)c1c(Cl)cccc1Cl,RT-V106A P225H,RT activity,15
CC[C@H]1C(=O)Nc2ccc(F)cc2N1C(=O)OC(C)C,RT-N137E,nucleotide incorporation / radiometric,1.2
COc1ccccc1N1CCN(C(=O)c2cc3cc4c(cc3[nH]2)OCO4)CC1,RT-Y181C P236L,,3.14
CC(C)=CCN1Cc2cccc3[nH]c(=S)n(c23)C[C@@H]1C,RT-V90A,RT activity,1.5
Cc1cn([C@H]2C=C[C@@H](COP(=O)(O)OP(=O)(O)OP(=O)(O)O)O2)c(=O)[nH]c1=O,RT-N137D,nucleotide incorporation / radiometric,8.4
COc1ccc2c(c1)N(C(=O)OC(C)C)[C@@H](CSC)C(=S)N2,RT-D67N K70R T215F K219Q Y188H,RT activity,4.67
Cc1cn([C@@H]2O[C@H](CO[Si](C)(C)C(C)(C)C)C3(OS(=O)(=O)C=C3N)[C@H]2O[Si](C)(C)C(C)(C)C)c(=O)n(C)c1=O,RT-V106A P225H,RT activity,>276
CC(C)=CCN1Cc2cccc3[nH]c(=S)n(c23)C[C@@H]1C,RT-E138K,nucleotide incorporation,4.4
CCc1c(Sc2ccccn2)n(COCc2ccccc2)c(=O)[nH]c1=O,RT-V90A,RT activity,1
c1ccc(C2SCc3nc4ccccc4n32)cc1,RT-Y181I Y188L,,>2
Cc1cn([C@@H]2O[C@H](CO[Si](C)(C)C(C)(C)C)C3(OS(=O)(=O)C=C3N)[C@H]2O[Si](C)(C)C(C)(C)C)c(=O)n(C)c1=O,RT-E138K(P51 ONLY),,38.5
CC(C)Nc1cccnc1N1CCN(C(=O)c2cc3cc4c(cc3[nH]2)OCO4)CC1,RT-Y181C P236L,,89.3
CC(C)Nc1cccnc1N1CCN(C(=O)c2cc3ccccc3[nH]2)CC1,RT-V106A,nucleotide incorporation,9.38
Nc1ccn([C@H]2CC[C@@H](COP(=O)(O)OP(=O)(O)OP(=O)(O)O)O2)c(=O)n1,RT-K65R,,4.18

Repeating the final 2 entries:

smiles	mutations	method	value
CC(C)Nc1cccnc1N1CCN(C(=O)c2cc3ccccc3[nH]2)CC1	RT-V106A	nucleotide incorporation	9.38
Nc1ccn([C@H]2CC[C@@H](COP(=O)(O)OP(=O)(O)OP(=O)(O)O)O2)c(=O)n1	RT-K65R		4.18